# Data as given in publication PMC8021898 (Frontiers in Pharmacology, 2021).
# System: Vero E6 cells
# Settings: African green monkey
smiles,measurement,value
NC(N)=Nc1nc(CSCCC(N)=NS(N)(=O)=O)cs1 [Famotidine],Cytotoxicity: CC10,> 100 µM
